Measurements as given in patent US20110033450A1 (ETAT FRANCAIS REPRESENTE PAR LE DELEGUE GENERAL POUR I …, published 2011).

Target: protective antigen PA83 (Bacillus anthracis, UniProt P13423 30-764)

B1: Fab 35PA83 (Fab, V domains shown)
VH: GPGLLKPSETLSLTCAVSGDSISGGYYWSWIRQSPGKGLEWIGHIYGSTADTRYNPSLKSRVTISKDTSKNQLSLQLRSVTAADTAVYYCARSGYNFWSGEYYGLDSWGQGAVVTVSS
VL: TQSPSSLSAYVGDKVTITCHASQGINSWLAWYQQKPGKAPKLLIYKASSLQSGVPSRFSGSGSGTDYTLTISSLQSEDFASYYCLQYDSAPLAFGPGTKLDIKR
  Kd: 3.4 nM
  koff: 0.00032 s⁻¹
  kon: 93000 M⁻¹ s⁻¹
